Data as given in PubChem BioAssay AID504761 (Drosophila RNAi Screening Center, 2011)

Purpose: 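Genome-wide fly cell screen for genes dengue virus requires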 (primary screen)
System: D.Mel-2 cells from Drosophila
Reagent: long dsRNA against Drosophila genes
Treatment: infection with dengue virus type 2; dose and infection time not stated
Measured: 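Per well on two replicate plates, imaging gave the percent of cells positive for viral envelope protein, ranked by infection, and a nuclear count of cells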
Reading the numbers: infection score: higher = more virus-infected cells; cell count: higher = more cells in the well
Active means: 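Low infection ranks in the two replicates (chance level up to 0.065) followed by a retest with a 1.5-fold or larger significant decrease, p below 0.05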
Meaning of the calls: active = confirmed: knock-down lowers infection; inactive = not picked or not confirmed
The screen tested about 22,000 reagents; below is a random part of those that have a named target and a result. Over the whole deposit, 116 (0.52%) are marked active. 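Calls depend on retest data that are not deposited; infection was ranked per plate without normalising between plates; the unit of the infection score is not given.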 The raw values are shown without normalisation. Reagents against one gene are numbered here. Names joined by + are all predicted targets of the reagent. Further read-outs or replicates are left out here. Not stated in the record: the amount of reagent, the time to read-out.

shps showed infection score, replicate 1 = 16; cell count, replicate 1 = 5450; inactive.
CG8774 showed infection score, replicate 1 = 14.8; cell count, replicate 1 = 5932; inactive.
Depletion of CG12081 gave: infection score, replicate 1 = 0.27; cell count, replicate 1 = 6280; inactive.
Knock-down of CG9752 gave: infection score, replicate 1 = 12.4; cell count, replicate 1 = 6417; inactive.
CG7907 #1 scored infection score, replicate 1 = 0.55; cell count, replicate 1 = 6557; inactive.
CG7907 #2 scored infection score, replicate 1 = 20.3; cell count, replicate 1 = 5242; inactive.
After knock-down of CG3640 the results were infection score, replicate 1 = 19.6; cell count, replicate 1 = 5555; inactive.
Depletion of TTLL4B #1 gave: infection score, replicate 1 = 6.47; cell count, replicate 1 = 5829; inactive.
After knock-down of TTLL4B #2, the record shows cell count, replicate 1 = 389; inactive.
Knock-down of His-Psi:CR31616 + His-Psi:CR31615 gave: infection score, replicate 1 = 7.84; cell count, replicate 1 = 5023; inactive.
For CG7156 #1, the entry reads infection score, replicate 1 = 4.37; cell count, replicate 1 = 5933; inactive.
CG7156 #2 showed infection score, replicate 1 = 3.88; cell count, replicate 1 = 6012; inactive.
Depletion of mRpL49 resulted in: infection score, replicate 1 = 5.95; cell count, replicate 1 = 2049; inactive.
Gr93a scored infection score, replicate 1 = 1.18; cell count, replicate 1 = 508; inactive.
